Anti-infective test results gathered from many reports (values: NIAID ChemDB through PubChem).

All rows: toxicity to cultured cells; cell line: PBMC; endpoint: CC50

Lines come from different laboratories, so protocols vary.

smiles	value
O=S(=O)(Cc1ccc(Cl)c(Cl)c1)NCCc1ccc2c(n1)NCCC2	50 µM
Cc1cn([C@H]2C=C[C@@H](CO)O2)c(=O)[nH]c1=O	42 µM
Nc1ccn([C@H]2O[C@@H](CO)C=C2F)c(=O)n1	>100 µM
CCn1cc(C(=O)O)c(=O)c2cc(F)c(N3CCN(c4ccccc4OC)CC3)c(OC(F)F)c21	22.9 µM
Cc1cn(C[C@H]2C[C@H]2CO)c(=O)[nH]c1=O	>100 µM
CC(C)=CC1Oc2cc(O)ccc2-c2oc3cc4c(c(O)c3c(=O)c21)C=CC(C)(C)O4	84.6 µM
O=c1[nH]c(=O)n([C@H]2C=C[C@@H](CO)O2)cc1CO	55 µM
O=C(NCCc1cccc(-n2ccnc2)n1)Nc1ccc(OC(F)(F)F)cc1	10.5 µM
CN(C)CCNc1c2c(nc3ccccc13)-c1ccccc1C2	1 µM
Cc1nc(CCCCCCC(=O)c2ccccc2)n2nc(NCCCCCCCCCCCCN)ccc12	>10 µM
CSCSc1nc(Cc2ccccc2)c(C(C)C)c(=O)[nH]1	>100 µM
Cc1nc(CCCCCCC(=O)c2ccccc2)n2nc(NCCCCCCCCN)ccc12	>10 µM
O=C(CN1c2c(-c3ccccc3)n[nH]c2-c2ccccc2S1(=O)=O)N/N=C/c1cccc(Br)c1	11.7 µM
Nc1ccn([C@@H]2C=C(F)[C@H](CO)O2)c(=O)n1	86.9 µM
NC(=O)c1cn([C@@H]2CS[C@H](CO)O2)cn1	>100 µM
O=C(CN1c2c(-c3ccccc3)n[nH]c2-c2ccccc2S1(=O)=O)N/N=C/c1ccc(Cl)cc1	31.6 µM
O=C(NCCc1ccc2c(n1)NCCC2)NC1CC1	50 µM
COc1c2ccoc2c(OCC=C(C)C)c2oc(=O)ccc12	21.3 µM
CN(C)CCSc1nccc(-c2ccc(-c3ccnc(SCCN(C)C)n3)s2)n1	10 µM
CCCCCCCCCN1C=Cc2nccc3cc(OC)c(OC)c1c23	1.4 µM
Nc1ccn([C@@H]2O[C@H](CO)C=C2F)c(=O)n1	7.3 µM
Cc1nc(CCCCCCC(=O)c2ccccc2)n2nc(NCCCCCCCCCCN)ccc12	>10 µM
O=c1cc(-c2ccc(O)cc2O)oc2cc(O)cc(O)c12	26.5 µM
CSCSc1nc(Cc2cc(C)cc(C)c2)c(C(C)C)c(=O)[nH]1	>100 µM
CN(C)CCNc1nc(-c2ccccc2)nc2ccccc12	70 µM
Nc1nc2c(ncn2C[C@H]2C[C@H]2[C@H](O)CO)c(=O)[nH]1	>100 µM
O=C(CN1c2c(-c3ccccc3)n[nH]c2-c2ccccc2S1(=O)=O)N/N=C/c1ccccc1F	20.7 µM
O=C(NCCc1ccc2c(n1)NCCCC2)NCc1ccc(Cl)c(Cl)c1	50 µM
CCCCCC[n+]1ccc2cc(OC)c(OC)c3c2c1C=CN3	3.2 µM
CN(C)CCNc1c2c(nc3ccccc13)-c1ccccc1CC2	100 µM
O=C(CN1c2c(-c3ccccc3)n[nH]c2-c2ccccc2S1(=O)=O)N/N=C/c1ccc(Cl)cc1Cl	11.1 µM
C=Cn1cc(C(=O)O)c(=O)c2cc(N)c(N3CCN(c4ccccn4)CC3)cc21	1.14 µM
COCCCCCCCCCCCC(=O)O	340 µM
Nc1ccn([C@H]2C=C(F)[C@@H](CO)O2)c(=O)n1	>100 µM
C=Cn1cc(C(=O)O)c(=O)c2ccc(N3CCN(c4ccccn4)CC3)cc21	9.11 µM
NC(=O)c1cnn([C@@H]2C=C(CO)[C@@H](O)[C@H]2O)c1	>100 µM
CN1CCN(c2nc(-c3ccccc3)nc3ccccc23)CC1	100 µM
CN(C)CCNc1nc(-c2ccco2)cc(-c2cc3ccccc3s2)n1	10 µM
CN(C)CCNc1cc(-c2ccc3ccccc3c2)nc2ccccc12	10 µM
OC[C@@H]1C[C@H](n2cnc3c(=S)nc[nH]c32)[C@@H](O)[C@H]1O	>100 µM
CN(C)CCNc1nc(-c2cccs2)cc(-c2cccs2)n1	10 µM
CC[n+]1ccc2cc(OC)c(OC)c3c2c1C=CN3	95.7 µM
CN(C)CCSc1ccc(-c2cc(-c3ccc(SCCN(C)C)cc3)ncn2)cc1	100 µM
CCCC[n+]1ccc2cc(OC)c(OC)c3c2c1C=CN3	13.7 µM
Cc1nc(CCCCCCC(=O)c2ccccc2)n2nc(NCCCCCCCCCCCCNCc3cn([C@H]4C=C[C@@H](CO)O4)c(=O)[nH]c3=O)ccc12	28 µM
CCCS(=O)(=O)Oc1c(OC)cc2ccnc3c2c1N(C)C=C3	1 µM
CC(C)=CCC/C(C)=C/COc1ccc2ccc(=O)oc2c1	46.8 µM
CCN1C=Cc2nccc3cc(OC)c(OC)c1c23	11.7 µM
CN(C)CCNc1nc(-c2ccoc2)cc(-c2cc3ccccc3s2)n1	10 µM
CCC(C)C(=O)c1c(O)c(C)c(OC)c(Cc2c(O)c(C)c(O)c3c2OC(C)(C)CC3=O)c1O	1.3 µM
CCCCCCC[n+]1ccc2cc(OC)c(OC)c3c2c1C=CN3	1.1 µM

CCn: concentration that lowers growth or viability of the cells by n%.